# Patent US7582611B2, “Motilide compounds” (Pfizer Inc., priority 2005, dated 2009)
# Test system: Streptococcus pneumoniae ATCC 6301
# Assay: Evaluation of antibacterial activity (MIC, serial dilutions on 96-well microtiter plates)
# Format: cell-based
# Settings: Streptococcus pneumoniae ATCC 6301 (erythromycin A sensitive strain)
smiles,measurement,value
CC[C@H]1OC(=O)[C@H](C)[C@@H](O[C@H]2C[C@@](C)(OC)C[C@H](C)O2)[C@H](C)[C@@H](O[C@@H]2O[C@H](C)C[C@H](N(C)C(C)C)[C@H]2O)[C@](C)(O)C[C@@H](C)[C@H](OCC(N)=O)[C@H](C)[C@@H](O)[C@]1(C)O,"Antibacterial Activity (MIC, μg/mL)",>129 µg/mL
